Test results: US6689782B2, “Fungal efflux pump inhibitors” (priority 2001, dated 2004)

Legend:
[1] = test system: C. glabrata YEM19 (over-expressing the CgCDR1 and CgCDR2 pumps); test: checkerboard assay / broth microdilution, potentiation of fluconazole vs. C. glabrata; settings: Nakaseomyces glabratus, 48 h
[2] = test system: Candida albicans YEM15 (over-expressing the CDR1 and CDR2 pumps); test: checkerboard assay / broth microdilution, potentiation of fluconazole vs. C. albicans; settings: 48 h

## COC(=O)N(C)[C@@H](C)C(=O)N1CCN(n2c(C(C)N(C(=O)Nc3ccc(F)cc3)c3ccc(OC)cc3OC)nc3ccccc3c2=O)CC1 (mixture of isomers) [Compound 300]
[1]
  MIC: > 32 µg/mL
[2]
  MIC: > 32 µg/mL

## COc1ccc(N(C(=O)Nc2ccc(F)cc2)C(C)c2nc3ccccc3c(=O)n2N2CCN(C(=O)[C@H](C)N(C)C(=O)OC(C)(C)C)CC2)c(OC)c1 (mixture of isomers) [Compound 301]
[1]
  MIC: > 32 µg/mL
[2]
  MIC: > 32 µg/mL

## COc1ccc(N(C(=O)Nc2ccc(F)cc2)C(C)c2nc3ccc(Cl)cc3c(=O)n2N2CCN(C(=O)[C@H](C)N)CC2)c(OC)c1 (mixture of isomers) [Compound 303]
[1]
  MIC: > 32 µg/mL
[2]
  MIC: > 32 µg/mL

## COc1ccc(N(C(=O)Nc2ccc(F)cc2)C(C)c2nc3cc(Cl)ccc3c(=O)n2N2CCN(C(=O)[C@H](C)N)CC2)c(OC)c1 (mixture of isomers) [Compound 304]
[1]
  MIC: > 32 µg/mL
[2]
  MIC: > 32 µg/mL

## COC(=O)N[C@@H](C)C(=O)N1CCN(n2c(C(C)N(C(=O)Nc3ccc(F)cc3)c3ccc(OC)cc3OC)nc3cc(F)c(F)cc3c2=O)CC1 (mixture of isomers) [Compound 306]
[1]
  MIC: > 32 µg/mL
[2]
  MIC: > 32 µg/mL

## COC(=O)N[C@@H](C)C(=O)N1CCN(n2c(C(C)N(C(=O)Nc3ccc(F)cc3)c3ccc(OC)cc3OC)nc3ccc(Cl)cc3c2=O)CC1 (mixture of isomers) [Compound 307]
[1]
  MIC: > 32 µg/mL
[2]
  MIC: > 32 µg/mL

## COC(=O)N[C@@H](C)C(=O)N1CCN(n2c(C(C)N(C(=O)Nc3ccc(F)cc3)c3ccc(OC)cc3OC)nc3ccc(OC)cc3c2=O)CC1 (mixture of isomers) [Compound 308]
[1]
  MIC: > 32 µg/mL
[2]
  MIC: > 32 µg/mL

## COC(=O)N[C@@H](C)C(=O)N1CCN(n2c(C(C)N(C(=O)Nc3ccc(F)cc3)c3ccc(OC)cc3OC)nc3cc(Cl)ccc3c2=O)CC1 (mixture of isomers) [Compound 309]
[1]
  MIC: > 32 µg/mL
[2]
  MIC: > 32 µg/mL

## COC(=O)N[C@@H](C)C(=O)N1CCN(n2c(C(C)N(C(=O)Nc3ccc(F)cc3)c3ccc(OC)cc3OC)nc3cc(F)ccc3c2=O)CC1 (mixture of isomers) [Compound 310]
[1]
  MIC: > 32 µg/mL
[2]
  MIC: > 32 µg/mL

## COc1ccc(N(C(=O)Nc2ccc(F)cc2)C(C)c2nc3cc(F)c(F)cc3c(=O)n2N2CCN(C(=O)[C@H](C)NC(=O)OC(C)(C)C)CC2)c(OC)c1 (mixture of isomers) [Compound 311]
[1]
  MIC: > 32 µg/mL
[2]
  MIC: > 32 µg/mL

## COc1ccc(N(C(=O)Nc2ccc(F)cc2)C(C)c2nc3ccc(Cl)cc3c(=O)n2N2CCN(C(=O)[C@H](C)NC(=O)OC(C)(C)C)CC2)c(OC)c1 (mixture of isomers) [Compound 312]
[1]
  MIC: > 32 µg/mL
[2]
  MIC: > 32 µg/mL

## COc1ccc(N(C(=O)Nc2ccc(F)cc2)C(C)c2nc3ccccc3c(=O)n2N2CCN(C(=O)C(C)N(C)C)CC2)c(OC)c1 (racemic) [Compound 313]
[1]
  MIC: > 32 µg/mL
[2]
  MIC: > 32 µg/mL

## COc1ccc(N(C(=O)Nc2ccc(F)cc2)C(C)c2nc3cc(F)c(F)cc3c(=O)n2N2CCN(C(=O)C[C@@H]3CCCN3)CC2)c(OC)c1 (mixture of isomers) [Compound 315]
[1]
  MIC: > 32 µg/mL
[2]
  MIC: > 32 µg/mL

## COc1ccc(N(C(=O)Nc2ccc(F)cc2)C(C)c2nc3ccc(Cl)cc3c(=O)n2N2CCN(C(=O)C[C@@H]3CCCN3)CC2)c(OC)c1 (mixture of isomers) [Compound 316]
[1]
  MIC: > 32 µg/mL
[2]
  MIC: > 32 µg/mL

## COc1ccc(N(C(=O)Nc2ccc(F)cc2)C(C)c2nc3cc(Cl)ccc3c(=O)n2N2CCN(C(=O)C[C@@H]3CCCN3)CC2)c(OC)c1 (mixture of isomers) [Compound 317]
[1]
  MIC: > 32 µg/mL
[2]
  MIC: > 32 µg/mL

## COc1ccc(N(C(=O)Nc2ccc(F)cc2)C(C)c2nc3ccccc3c(=O)n2N2CCN(C(=O)Cc3csc(N)n3)CC2)c(OC)c1 (racemic) [Compound 318]
[1]
  MIC: > 32 µg/mL
[2]
  MIC: > 32 µg/mL

## CCOC(=O)NCCC(=O)N1CCN(n2c(C(C)N(C(=O)Nc3ccc(F)cc3)c3ccc(OC)cc3OC)nc3ccccc3c2=O)CC1 (racemic) [Compound 319]
[1]
  MIC: > 32 µg/mL
[2]
  MIC: > 32 µg/mL

## COc1ccc(N(C(=O)Nc2ccc(F)cc2)C(C)c2nc3ccccc3c(=O)n2N2CCN(C(=O)CCNC(=O)OC(C)C)CC2)c(OC)c1 (racemic) [Compound 320]
[1]
  MIC: > 32 µg/mL
[2]
  MIC: > 32 µg/mL

## COC(=O)NCCC(=O)N1CCN(n2c(C(C)N(C(=O)Nc3ccc(F)cc3)c3ccc(OC)cc3OC)nc3ccccc3c2=O)CC1 (racemic) [Compound 321]
[1]
  MIC: > 32 µg/mL
[2]
  MIC: > 32 µg/mL

## CCOC(=O)N(C)CC(=O)N1CCN(n2c(C(C)N(C(=O)Nc3ccc(F)cc3)c3ccc(OC)cc3OC)nc3ccccc3c2=O)CC1 (racemic) [Compound 322]
[1]
  MIC: > 32 µg/mL
[2]
  MIC: > 32 µg/mL

## COc1ccc(N(C(=O)Nc2ccc(F)cc2)C(C)c2nc3ccccc3c(=O)n2N2CCN(C(=O)CN(C)C(=O)OC(C)C)CC2)c(OC)c1 (racemic) [Compound 323]
[1]
  MIC: > 32 µg/mL
[2]
  MIC: > 32 µg/mL

## COc1ccc(N(C(=O)Nc2ccc(F)cc2)C(C)c2nc3ccc(Cl)cc3c(=O)n2N2CCN(C(=O)C(C)(C)N)CC2)c(OC)c1 (racemic) [Compound 327]
[1]
  MIC: > 32 µg/mL
[2]
  MIC: > 32 µg/mL

## COc1ccc(N(C(=O)Nc2ccc(F)cc2)C(C)c2nc3cc(Cl)ccc3c(=O)n2N2CCN(C(=O)C(C)(C)N)CC2)c(OC)c1 (racemic) [Compound 328]
[1]
  MIC: > 32 µg/mL
[2]
  MIC: > 32 µg/mL

## COc1ccc(N(C(=O)Nc2ccc(F)cc2)C(C)c2nc3cc(F)ccc3c(=O)n2N2CCN(C(=O)C(C)(C)N)CC2)c(OC)c1 (racemic) [Compound 329]
[1]
  MIC: > 32 µg/mL
[2]
  MIC: > 32 µg/mL

## CCOC(=O)NC(C)(C)C(=O)N1CCN(n2c(C(C)N(C(=O)Nc3ccc(F)cc3)c3ccc(OC)cc3OC)nc3ccccc3c2=O)CC1 (racemic) [Compound 331]
[1]
  MIC: > 32 µg/mL
[2]
  MIC: > 32 µg/mL

## COc1ccc(N(C(=O)Nc2ccc(F)cc2)C(C)c2nc3ccccc3c(=O)n2N2CCN(C(=O)C(C)(C)NC(=O)OC(C)C)CC2)c(OC)c1 (racemic) [Compound 332]
[1]
  MIC: > 32 µg/mL
[2]
  MIC: > 32 µg/mL

## COC(=O)NC(C)(C)C(=O)N1CCN(n2c(C(C)N(C(=O)Nc3ccc(F)cc3)c3ccc(OC)cc3OC)nc3cc(F)c(F)cc3c2=O)CC1 (racemic) [Compound 333]
[1]
  MIC: > 32 µg/mL
[2]
  MIC: > 32 µg/mL

## COC(=O)NC(C)(C)C(=O)N1CCN(n2c(C(C)N(C(=O)Nc3ccc(F)cc3)c3ccc(OC)cc3OC)nc3ccc(Cl)cc3c2=O)CC1 (racemic) [Compound 334]
[1]
  MIC: > 32 µg/mL
[2]
  MIC: > 32 µg/mL

## COC(=O)NC(C)(C)C(=O)N1CCN(n2c(C(C)N(C(=O)Nc3ccc(F)cc3)c3ccc(OC)cc3OC)nc3cc(Cl)ccc3c2=O)CC1 (racemic) [Compound 335]
[1]
  MIC: > 32 µg/mL
[2]
  MIC: > 32 µg/mL

## COC(=O)NC(C)(C)C(=O)N1CCN(n2c(C(C)N(C(=O)Nc3ccc(F)cc3)c3ccc(OC)cc3OC)nc3cc(F)ccc3c2=O)CC1 (racemic) [Compound 336]
[1]
  MIC: > 32 µg/mL
[2]
  MIC: > 32 µg/mL
